What all share (type): functional
Experiment [1] relates to Mycobacterium tuberculosis. The experiment in a line: Antimycobacterial activity against Mycobacterium tuberculosis My 331/88 after 14 days by micromethod.
Experiment [2] concerns Mycobacterium avium. Briefly: Antimycobacterial activity against Mycobacterium avium My 330/88 after 14 days by micromethod.
The subject of experiment [3] is Mycobacterium tuberculosis. The experiment in a line: Antimycobacterial activity against Mycobacterium tuberculosis My 331/88 after 21 days by micromethod.
For experiment [4], the system named is Mycobacterium avium. Briefly: Antimycobacterial activity against Mycobacterium avium My 330/88 after 21 days by micromethod.
Experiment [5] has as its system Mycobacterium kansasii. Briefly: Antimycobacterial activity against Mycobacterium kansasii My 235/80 after 7 days by micromethod.
The test system of experiment [6] is Mycobacterium kansasii. The experiment in a line: Antimycobacterial activity against Mycobacterium kansasii My 235/80 after 14 days by micromethod.
The subject of experiment [7] is Mycobacterium kansasii. The experiment in a line: Antimycobacterial activity against Mycobacterium kansasii My 235/80 after 21 days by micromethod.
Experiment [8] concerns Mycobacterium kansasii. The experiment in a line: Antimycobacterial activity against Mycobacterium kansasii 6509/96 after 7 days by micromethod.
Experiment [9] relates to Mycobacterium kansasii. The experiment in a line: Antimycobacterial activity against Mycobacterium kansasii 6509/96 after 14 days by micromethod.
Experiment [10] relates to Mycobacterium kansasii. The experiment in a line: Antimycobacterial activity against Mycobacterium kansasii 6509/96 after 21 days by micromethod.

Converted amounts (≈) assume the structure as drawn.

Take `O=[N+]([O-])c1cc(Cn2nnc(SCc3ccc([N+](=O)[O-])cc3[N+](=O)[O-])n2)cc([N+](=O)[O-])c1`: the MIC in [1] was found to be 4 µM (≈ 1.85 µg/mL); in the experiment on Mycobacterium avium [2], 250 µM (≈ 116 µg/mL); in experiment [3], 4 µM (≈ 1.85 µg/mL); in the experiment on Mycobacterium avium [4], 250 µM (≈ 116 µg/mL); with Mycobacterium kansasii [5], 4 µM (≈ 1.85 µg/mL); against Mycobacterium kansasii [6], 16 µM (≈ 7.4 µg/mL). In addition, the minimum inhibitory concentration (MIC) turned out to be 32 µM (≈ 14.8 µg/mL) in the experiment with Mycobacterium kansasii [7], 8 µM (≈ 3.7 µg/mL) against Mycobacterium kansasii [8], 16 µM (≈ 7.4 µg/mL) against Mycobacterium kansasii [9] and 16 µM (≈ 7.4 µg/mL) against Mycobacterium kansasii [10].

As for `O=[N+]([O-])c1ccc(Cn2nnnc2[Se]Cc2ccc([N+](=O)[O-])cc2[N+](=O)[O-])cc1`, the MIC in experiment [1] was found to be 16 µM (≈ 7.43 µg/mL); against Mycobacterium avium [2], 62 µM (≈ 28.8 µg/mL); in experiment [3] it was 16 µM (≈ 7.43 µg/mL); in the experiment with Mycobacterium avium [4] it was 62 µM (≈ 28.8 µg/mL); against Mycobacterium kansasii [5], 16 µM (≈ 7.43 µg/mL); against Mycobacterium kansasii [6] it was 32 µM (≈ 14.9 µg/mL). Moreover, the MIC in the experiment on Mycobacterium kansasii [7] stood at 32 µM (≈ 14.9 µg/mL); with Mycobacterium kansasii [8], 32 µM (≈ 14.9 µg/mL); in the experiment on Mycobacterium kansasii [9], 62 µM (≈ 28.8 µg/mL); against Mycobacterium kansasii [10], 62 µM (≈ 28.8 µg/mL).

Regarding `O=[N+]([O-])c1ccc(C[Se]c2nnnn2Cc2ccc([N+](=O)[O-])cc2[N+](=O)[O-])c([N+](=O)[O-])c1`, the MIC in experiment [1] came out at 8 µM (≈ 4.07 µg/mL); against Mycobacterium avium [2] it was 32 µM (≈ 16.3 µg/mL); in experiment [3], 16 µM (≈ 8.15 µg/mL); with Mycobacterium avium [4] it was 32 µM (≈ 16.3 µg/mL); against Mycobacterium kansasii [5], 32 µM (≈ 16.3 µg/mL); against Mycobacterium kansasii [6], 62 µM (≈ 31.6 µg/mL). Further, the MIC turned out to be 62 µM (≈ 31.6 µg/mL) in the experiment with Mycobacterium kansasii [7], 32 µM (≈ 16.3 µg/mL) in the experiment with Mycobacterium kansasii [8], 62 µM (≈ 31.6 µg/mL) against Mycobacterium kansasii [9] and 62 µM (≈ 31.6 µg/mL) against Mycobacterium kansasii [10].

On to `O=[N+]([O-])c1ccc(Cn2nnnc2SCc2cc([N+](=O)[O-])cc([N+](=O)[O-])c2)cc1`, for which the MIC in experiment [1] came to 2 µM (≈ 0.835 µg/mL); against Mycobacterium avium [2] it was 250 µM (≈ 104 µg/mL); in experiment [3], 4 µM (≈ 1.67 µg/mL); in the experiment on Mycobacterium avium [4] it was 250 µM (≈ 104 µg/mL); against Mycobacterium kansasii [5], 1 µM (≈ 0.417 µg/mL); against Mycobacterium kansasii [6], 4 µM (≈ 1.67 µg/mL). Moreover, the MIC stood at 4 µM (≈ 1.67 µg/mL) in the experiment on Mycobacterium kansasii [7], 2 µM (≈ 0.835 µg/mL) in the experiment on Mycobacterium kansasii [8], 8 µM (≈ 3.34 µg/mL) against Mycobacterium kansasii [9] and 16 µM (≈ 6.68 µg/mL) in the experiment on Mycobacterium kansasii [10].

Turning to `O=[N+]([O-])c1ccc(Cn2nnc(SCc3cc([N+](=O)[O-])cc([N+](=O)[O-])c3)n2)cc1`, the MIC in experiment [1] turned out to be 1 µM (≈ 0.417 µg/mL); with Mycobacterium avium [2] it was 250 µM (≈ 104 µg/mL); in experiment [3] it was 2 µM (≈ 0.835 µg/mL); against Mycobacterium avium [4], 250 µM (≈ 104 µg/mL); with Mycobacterium kansasii [5], 2 µM (≈ 0.835 µg/mL); against Mycobacterium kansasii [6], 2 µM (≈ 0.835 µg/mL). For the same compound, the MIC is 4 µM (≈ 1.67 µg/mL) in the experiment with Mycobacterium kansasii [7], 2 µM (≈ 0.835 µg/mL) in the experiment with Mycobacterium kansasii [8], 8 µM (≈ 3.34 µg/mL) with Mycobacterium kansasii [9] and 8 µM (≈ 3.34 µg/mL) against Mycobacterium kansasii [10].

For `O=[N+]([O-])c1cc(CSc2nnnn2Cc2cc([N+](=O)[O-])cc([N+](=O)[O-])c2)cc([N+](=O)[O-])c1`, the MIC in [1] is 4 µM (≈ 1.85 µg/mL); in the experiment with Mycobacterium avium [2], 250 µM (≈ 116 µg/mL); in experiment [3], 8 µM (≈ 3.7 µg/mL); with Mycobacterium avium [4] it was 250 µM (≈ 116 µg/mL); with Mycobacterium kansasii [5], 4 µM (≈ 1.85 µg/mL); in the experiment on Mycobacterium kansasii [6], 8 µM (≈ 3.7 µg/mL). The MIC in the experiment on Mycobacterium kansasii [7] was 8 µM (≈ 3.7 µg/mL); with Mycobacterium kansasii [8], 8 µM (≈ 3.7 µg/mL); with Mycobacterium kansasii [9] it was 16 µM (≈ 7.4 µg/mL); in the experiment with Mycobacterium kansasii [10], 32 µM (≈ 14.8 µg/mL).

In the case of `O=[N+]([O-])c1ccc(CSc2nnn(Cc3cc([N+](=O)[O-])cc([N+](=O)[O-])c3)n2)cc1`, the MIC came out at 8 µM (≈ 3.34 µg/mL) in experiment [1]; 250 µM (≈ 104 µg/mL) with Mycobacterium avium [2]; 8 µM (≈ 3.34 µg/mL) in experiment [3]; 250 µM (≈ 104 µg/mL) against Mycobacterium avium [4]; 4 µM (≈ 1.67 µg/mL) in the experiment with Mycobacterium kansasii [5]; 8 µM (≈ 3.34 µg/mL) in the experiment with Mycobacterium kansasii [6]. Further, the MIC against Mycobacterium kansasii [7] is 16 µM (≈ 6.68 µg/mL); in the experiment with Mycobacterium kansasii [8], 16 µM (≈ 6.68 µg/mL); in the experiment on Mycobacterium kansasii [9] it was 16 µM (≈ 6.68 µg/mL); against Mycobacterium kansasii [10], 32 µM (≈ 13.4 µg/mL).

Take `O=[N+]([O-])c1cc(Cn2nnc([Se]Cc3ccc([N+](=O)[O-])cc3[N+](=O)[O-])n2)cc([N+](=O)[O-])c1`: the MIC in experiment [1] came out at 16 µM (≈ 8.15 µg/mL); in the experiment with Mycobacterium avium [2], 250 µM (≈ 127 µg/mL); in experiment [3], 16 µM (≈ 8.15 µg/mL); against Mycobacterium avium [4] it was 250 µM (≈ 127 µg/mL); in the experiment with Mycobacterium kansasii [5] it was 8 µM (≈ 4.07 µg/mL); in the experiment with Mycobacterium kansasii [6] it was 16 µM (≈ 8.15 µg/mL). Moreover, the MIC in the experiment on Mycobacterium kansasii [7] stood at 32 µM (≈ 16.3 µg/mL); against Mycobacterium kansasii [8] it was 16 µM (≈ 8.15 µg/mL); in the experiment on Mycobacterium kansasii [9] it was 32 µM (≈ 16.3 µg/mL); against Mycobacterium kansasii [10], 62 µM (≈ 31.6 µg/mL).

With `O=[N+]([O-])c1ccc(C[Se]c2nnn(Cc3ccc([N+](=O)[O-])cc3[N+](=O)[O-])n2)cc1`, the MIC in experiment [1] stood at 2 µM (≈ 0.929 µg/mL); in the experiment on Mycobacterium avium [2], 8 µM (≈ 3.71 µg/mL); in [3] it was 2 µM (≈ 0.929 µg/mL); in the experiment with Mycobacterium avium [4], 16 µM (≈ 7.43 µg/mL); against Mycobacterium kansasii [5], 1 µM (≈ 0.464 µg/mL); in the experiment with Mycobacterium kansasii [6], 2 µM (≈ 0.929 µg/mL). In addition, the MIC in the experiment on Mycobacterium kansasii [7] was 2 µM (≈ 0.929 µg/mL); against Mycobacterium kansasii [8], 2 µM (≈ 0.929 µg/mL); against Mycobacterium kansasii [9], 4 µM (≈ 1.86 µg/mL); in the experiment on Mycobacterium kansasii [10], 8 µM (≈ 3.71 µg/mL).

`O=[N+]([O-])c1ccc(Cn2nnc([Se]Cc3ccc([N+](=O)[O-])cc3[N+](=O)[O-])n2)cc1`: the minimal inhibitory concentration (MIC) was determined as 32 µM (≈ 14.9 µg/mL) in experiment [1]; 125 µM (≈ 58 µg/mL) in the experiment with Mycobacterium avium [2]; 32 µM (≈ 14.9 µg/mL) in [3]; 125 µM (≈ 58 µg/mL) with Mycobacterium avium [4]; 16 µM (≈ 7.43 µg/mL) against Mycobacterium kansasii [5]; 32 µM (≈ 14.9 µg/mL) in the experiment on Mycobacterium kansasii [6]. The MIC was determined as 32 µM (≈ 14.9 µg/mL) in the experiment with Mycobacterium kansasii [7], 32 µM (≈ 14.9 µg/mL) against Mycobacterium kansasii [8], 62 µM (≈ 28.8 µg/mL) against Mycobacterium kansasii [9] and 62 µM (≈ 28.8 µg/mL) against Mycobacterium kansasii [10].

By MIC is commonly meant the lowest concentration found to suppress growth. A low value points to inhibition by little substance.

The record behind these values is ChEMBL document CHEMBL3621085, “Tetrazole regioisomers in the development of nitro group-containing antitubercular agents” (Medchemcomm, 2015).
